# Data published in publication PMC8865919, “Penicillin Binding Proteins and β-Lactamases of Mycobacterium tuberculosis: Reexamination of the Historical Paradigm” (mSphere, 2022).
# Protein sequences, listed by entry. Tags and fused reporters are not part of them. Residues count along the entry.
# UniProt O06380, 35-461 limits assumed: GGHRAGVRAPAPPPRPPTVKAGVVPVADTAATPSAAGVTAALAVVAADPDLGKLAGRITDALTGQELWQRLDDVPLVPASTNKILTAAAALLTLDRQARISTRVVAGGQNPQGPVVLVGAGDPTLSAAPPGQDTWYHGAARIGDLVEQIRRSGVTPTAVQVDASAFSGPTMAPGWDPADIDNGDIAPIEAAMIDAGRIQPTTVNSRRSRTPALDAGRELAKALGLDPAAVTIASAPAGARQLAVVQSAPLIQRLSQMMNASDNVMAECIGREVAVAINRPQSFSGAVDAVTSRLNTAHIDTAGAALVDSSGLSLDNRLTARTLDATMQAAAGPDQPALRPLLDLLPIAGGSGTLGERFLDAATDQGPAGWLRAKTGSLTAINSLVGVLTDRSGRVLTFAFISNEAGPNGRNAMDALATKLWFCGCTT
# UniProt I6YGX2, 40-810 limits assumed: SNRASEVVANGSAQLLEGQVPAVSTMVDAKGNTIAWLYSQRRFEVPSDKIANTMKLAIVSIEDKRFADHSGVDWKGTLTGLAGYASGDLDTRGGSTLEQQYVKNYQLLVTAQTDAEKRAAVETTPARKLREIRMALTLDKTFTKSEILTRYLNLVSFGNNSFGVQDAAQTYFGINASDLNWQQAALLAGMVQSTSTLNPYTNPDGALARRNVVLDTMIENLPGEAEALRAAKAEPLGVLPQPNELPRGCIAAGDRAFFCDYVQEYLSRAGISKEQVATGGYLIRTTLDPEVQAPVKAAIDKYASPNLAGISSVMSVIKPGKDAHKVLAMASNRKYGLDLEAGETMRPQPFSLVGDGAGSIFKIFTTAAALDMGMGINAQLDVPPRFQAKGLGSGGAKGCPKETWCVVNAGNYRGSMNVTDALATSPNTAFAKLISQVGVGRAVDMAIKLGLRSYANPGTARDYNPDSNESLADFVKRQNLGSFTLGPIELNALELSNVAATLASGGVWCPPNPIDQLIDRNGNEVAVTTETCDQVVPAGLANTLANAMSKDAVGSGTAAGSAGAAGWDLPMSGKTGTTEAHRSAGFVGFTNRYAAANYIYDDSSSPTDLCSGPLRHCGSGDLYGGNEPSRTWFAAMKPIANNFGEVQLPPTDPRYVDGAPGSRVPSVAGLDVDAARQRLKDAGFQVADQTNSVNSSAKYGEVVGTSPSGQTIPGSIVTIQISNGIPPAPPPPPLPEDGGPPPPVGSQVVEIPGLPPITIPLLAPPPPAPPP
# UniProt I6Y204, 23-291 limits assumed: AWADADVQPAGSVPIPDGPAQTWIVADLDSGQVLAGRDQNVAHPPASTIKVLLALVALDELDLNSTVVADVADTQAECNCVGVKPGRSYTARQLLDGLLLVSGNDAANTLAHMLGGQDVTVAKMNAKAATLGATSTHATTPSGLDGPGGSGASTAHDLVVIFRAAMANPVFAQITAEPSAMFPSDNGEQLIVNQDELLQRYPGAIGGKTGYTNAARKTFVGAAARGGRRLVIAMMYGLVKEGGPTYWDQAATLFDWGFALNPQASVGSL
# Experiments:
# Assay in all cases: BOCILLIN FL fluorescence inhibition, SDS-PAGE
# Settings in all cases: read-out: FIC50; covalent; competition with 50 μM BOCILLIN FL added after 30 min preincubation; ~200 pmol protein; Tris-Cl pH 7.4; 25°C; tested form: K salt
# [1] = target: DacB (Rv3627c) (Mycobacterium tuberculosis, UniProt O06380)
# Source text: BOCILLIN FL fluorescence inhibition, SDS-PAGE on DacB (Rv3627c)
# [2] = target: PonA2 (Rv3682) (Mycobacterium tuberculosis, UniProt I6YGX2)
# Source text: BOCILLIN FL fluorescence inhibition, SDS-PAGE on PonA2 (Rv3682)
# [3] = target: DacB2 (Rv2911) (Mycobacterium tuberculosis, UniProt I6Y204)
# Source text: BOCILLIN FL fluorescence inhibition, SDS-PAGE on DacB2 (Rv2911)
compound,measurement,setting,value
C[C@@H](O)[C@H]1C(=O)N2C(C(=O)O)=C(SC3CN(C4=NCCS4)C3)S[C@H]12,IC50,[1],1.2 µM
same,IC50,[2],13.8 µM
same,IC50,[3],11.8 µM
